Results of unrelated studies side by side (data: NIAID ChemDB).

Shared fields: tests on isolated targets; species: HIV-1; protein: Reverse transcriptase; method: nucleotide incorporation / radiometric; endpoint: IC50

An empty or dashed field is not shown.

structure | strain | mutations | value
CCN1c2ncc(CCOc3ccc(C(=O)NCC(CC)(CC)C(=O)O)cc3C)cc2C(=O)N(C)c2cccnc21 | IIIB | RT-K103N Y181C | <0.05 µM
Cc1cccc(CS(=O)(=O)c2cccc[n+]2[O-])c1 |  |  | 132 µg/mL
CCc1ccc(-n2c(Br)nnc2SCC(=O)Nc2ccc(C(=O)NCCCCO)cc2Cl)c2ccccc12 |  | RT-Y188L | <0.05 µM
CCN1c2ncc(CCOc3ccc(-c4ccc(Cl)c(CC(=O)O)c4)cc3C)cc2C(=O)N(C)c2cccnc21 | IIIB |  | <0.05 µM
O=C(O)CCNC(=O)c1ccc(NC(=O)CSc2nnc(Br)n2-c2ccc(C3CC3)c3ccccc23)c(Cl)c1 |  |  | <0.05 µM
CCN1c2ncc(CCOc3ccc(-c4cc[n+](C)cc4)cc3C)cc2C(=O)N(C)c2cccnc21.[O-]C(F)(F)F | IIIB | RT-K103N Y181C | <0.05 µM
O=C(CSc1nnc(Br)n1-c1ccc(C2CC2)cc1Cl)Nc1ccc(C(=O)O)cc1Cl |  | RT-Y181C | <0.05 µM
CCN1c2ncc(CCOc3ccc(S(=O)(=O)NCC(=O)O)c4ccccc34)cc2C(=O)N(C)c2cccnc21 |  | RT-K103N Y181C | <0.1 µM
CCOC(=O)[C@H](Cc1ccc(O)cc1)NC(=O)c1ccc(NC(=O)CSc2nnc(Br)n2-c2ccc(C3CC3)c3ccccc23)c(Cl)c1 |  | RT-Y188L | 0.05–0.1 µM
CCN1c2ncc(CCOc3ccc(-c4ccc[n+]([O-])c4)cc3C)cc2C(=O)N(C)c2cccnc21 | IIIB |  | <0.05 µM
Cc1cc(C2CC2)c2ccccc2c1-n1c(Br)nnc1SCC(=O)Nc1ccc(S(N)(=O)=O)cc1Cl |  |  | <0.05 µM
CCN1c2ncc(CCOc3ccc4cc(CC(=O)O)ccc4c3C)cc2C(=O)N(C)c2cccnc21 |  | RT-V106A | 0.1–1 µM
CCc1ccc(-n2c(Br)nnc2SCC(=O)Nc2ccc(C(=O)N[C@@H](CO)C(=O)OC)cc2Cl)c2ccccc12 |  |  | <0.05 µM
NS(=O)(=O)c1ccc(NC(=O)CSc2nnc(C(F)F)n2-c2ccc(C3CC3)c3ccccc23)c(Cl)c1 |  |  | <0.05 µM
CCc1ccc(-n2c(Br)nnc2SCC(=O)Nc2ccc(C(=O)NCC(=O)O)cc2Cl)c2ccccc12 |  | RT-Y181C | <0.05 µM
COc1ccc2c(C)ccc(-n3c(Br)nnc3SCC(=O)Nc3ccc(C(=O)O)cc3Cl)c2c1 |  | RT-Y188L | <0.05 µM
CCN1c2ncc(CCOc3ccc(-c4cccc(C(=O)O)c4)cc3)cc2C(=O)N(C)c2cccnc21 | IIIB |  | <0.05 µM
Cc1cc(C)c(-n2c(SCC(=O)Nc3ccc(S(N)(=O)=O)cc3Cl)nnc2C(F)(F)F)c2c1CCCC2 |  | RT-Y188L | >0.1 µM
CCc1ccc(-n2c(SCC(=O)Nc3ccc(C(=O)O)cc3Cl)nnc2C(F)(F)F)c2ccccc12 |  |  | <0.05 µM
CCN1c2ncc(CCOc3ccc(S(=O)(=O)c4ccncc4)cc3C)cc2C(=O)N(C)c2cccnc21 | IIIB | RT-K103N Y181C | <0.05 µM
CCOC(=O)CN(C)C(=O)c1ccc(NC(=O)CSc2nnc(Br)n2-c2ccc(C3CC3)c3ccccc23)c(Cl)c1 |  |  | 0.05–0.1 µM
CCN1c2ncc(CCOc3ccc(NC(=O)CC4(C(=O)O)CCCC4)cc3C)cc2C(=O)N(C)c2cccnc21 | IIIB |  | <0.05 µM
CCOC(=O)CCNC(=O)c1ccc(NC(=O)CSc2nnc(Br)n2-c2ccc(C3CC3)c3ccccc23)c(Cl)c1 |  |  | <0.05 µM
CCN1c2ncc(CCOc3ccc(NS(=O)(=O)C(F)(F)F)c4ccccc34)cc2C(=O)N(C)c2ccc(F)nc21 | WT |  | <0.1 µM
Cc1cc(S(N)(=O)=O)ccc1NC(=O)CSc1nnc(Br)n1-c1ccc(F)c2ccccc12 |  | RT-Y188L | >0.1 µM
CCN1c2ncc(CCOc3ccc(CC(C)C(=O)O)c4ccccc34)cc2C(=O)N(C)c2ccc(Cl)nc21 |  | RT-Y188L | >1 µM
CCc1ccc(-n2c(Br)nnc2SCC(=O)Nc2ccc(C(=O)N[C@H](C(=O)OC)C(C)C)cc2Cl)c2ccccc12 |  | RT-Y181C | <0.05 µM
Cc1ccc2c(C)cc(C)c(-n3c(SCC(=O)Nc4ccc(S(N)(=O)=O)cc4Cl)nnc3C(F)F)c2n1 |  |  | <0.05 µM
CCN1c2ncc(CCOc3ccc(C(=O)Nc4ccc[n+]([O-])c4)cc3C)cc2C(=O)Nc2c(C)ccnc21 | IIIB | RT-K103N Y181C | <0.05 µM
Cc1cc(C)c2ccccc2c1-n1c(SCC(=O)Nc2ccc(S(N)(=O)=O)cc2Cl)nnc1C(F)F |  |  | <0.05 µM
COc1ccc2c(C)ccc(-n3c(Br)nnc3SCC(=O)Nc3ccc(C(=O)O)cc3Cl)c2c1 |  |  | <0.05 µM
Cc1cc(S(N)(=O)=O)ccc1NC(=O)CSc1nnc(C(F)F)n1-c1cccc2c(C#N)cccc12 |  |  | >0.1 µM
CCN1c2nc(C(F)(F)F)ccc2NC(=O)c2cc(CCOc3cc[n+]([O-])c4ccccc34)cnc21 |  | RT-V106A | 0.893 µM

Lines come from different laboratories, so protocols vary. ICn: concentration for n% inhibition. a–b is a range or a potency band.